{"source": "PubChem BioAssay AID1224833 (University of Georgia, 2016)", "purpose": "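Human genes whose knock-down alters rotavirus replication in monkey cells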 (primary screen)", "cell system": "monkey MA104 kidney cells", "knock-down reagent": "siRNA pool against human genes, 50 nM", "time to read-out": "48 h knock-down before infection; read 24 h after infection", "challenge": "infection with rotavirus strain RV3 two days after transfection; infectious dose for this stage not given", "read-out": "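Rotavirus antigen per well by fluorescent immunoassay, normalised to non-targeting control wells on each plate and given as a standard z-score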", "direction": "z-score vs non-targeting control: higher = more rotavirus replication than with non-targeting control", "hit rule": "In these data the active calls have z-score vs non-targeting control at about -1 or lower, or at about 1 or higher", "calls": "active = z-score beyond 1 either way; inactive = z-score within 1 of zero", "note": "The whole screen tested about 12,000 reagents; this is a random part of them. Over the whole deposit, about 5,600 (46%) were called active. 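Active calls cover z-scores past 1 in both directions, so they include lowered as well as raised rotavirus replication.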 A number with no mark means an inactive call."}
{"Target gene": "MFN2", "z-score vs non-targeting control": "-1.92 (active)"}
{"Target gene": "KIF24", "z-score vs non-targeting control": -0.094}
{"Target gene": "NOL9", "z-score vs non-targeting control": "-1.49 (active)"}
{"Target gene": "AKAP8L", "z-score vs non-targeting control": "1.84 (active)"}
{"Target gene": "SLC26A11", "z-score vs non-targeting control": "-1.99 (active)"}
{"Target gene": "ZNF660", "z-score vs non-targeting control": 0.865}
{"Target gene": "POGK", "z-score vs non-targeting control": "1.14 (active)"}
{"Target gene": "IL12A", "z-score vs non-targeting control": 0.5}
{"Target gene": "GH2", "z-score vs non-targeting control": 0.617}

Part of the list above, set out differently.
{"Target gene":"KIF24","z-score vs non-targeting control":-0.094}
{"Target gene":"NOL9","z-score vs non-targeting control":"-1.49 (active)"}
{"Target gene":"AKAP8L","z-score vs non-targeting control":"1.84 (active)"}

More results follow.
{"Target gene": "OR51B6", "z-score vs non-targeting control": -0.284}
{"Target gene": "SSBP3", "z-score vs non-targeting control": -0.181}
{"Target gene": "MAB21L3", "z-score vs non-targeting control": "-1.16 (active)"}
{"Target gene": "RGS8", "z-score vs non-targeting control": -0.754}
{"Target gene": "U2AF1L4", "z-score vs non-targeting control": "-2.66 (active)"}
{"Target gene": "AOX1", "z-score vs non-targeting control": 0.654}
{"Target gene": "CLEC7A", "z-score vs non-targeting control": 0.555}
{"Target gene": "USP4", "z-score vs non-targeting control": 0.851}
{"Target gene": "CBLN2", "z-score vs non-targeting control": "-1.25 (active)"}
{"Target gene": "CCDC121", "z-score vs non-targeting control": 0.869}
